Plain letter strings leave the end groups untold.
Experiment: Fmoc solid-phase peptide synthesis; Rink resin; Diisopropylcarbodiimide
Details: whole synthesis, UV 217 nm, scale 1 g, 0.45 mmol/g, lyophilized from 0.1 M HCl

TPRARRRKKRT
final HPLC purity: exceed 95%

From US8053553B2 (Socpra Sciences Sante Et Humaines, priority 2007, dated 2011)
